A mixed list of measured activities; the numbers were collected in NIAID ChemDB.

Shared fields: growth or infection tests; agent: HIV-2; cells: MT-4; measure: EC50

Lines come from different laboratories, so protocols vary. ECn: concentration that inhibits the pathogen or its effect by n%.

{"smiles": "Cc1cn([C@H]2C[C@H](N=[N+]=[N-])[C@@H](COC(=O)CCC(=O)OCC3OC4OC5C(COS(=O)(=O)O)OC(OC6C(COS(=O)(=O)O)OC(OC7C(COS(=O)(=O)O)OC(OC8C(COS(=O)(=O)O)OC(OC9C(COS(=O)(=O)O)OC(OC3C(OS(=O)(=O)O)C4OS(=O)(=O)O)C(OS(=O)(=O)O)C9OS(=O)(=O)O)C(OS(=O)(=O)O)C8OS(=O)(=O)O)C(OS(=O)(=O)O)C7OS(=O)(=O)O)C(OS(=O)(=O)O)C6OS(=O)(=O)O)C(OS(=O)(=O)O)C5OS(=O)(=O)O)O2)c(=O)[nH]c1=O", "strain": "ROD", "read by": "cytopathic effect / MTT", "value": "5.17 µg/mL"}
{"smiles": "O=C1CSC(c2c(F)cccc2F)N1Cc1ccco1", "strain": "ROD", "read by": "cytopathic effect", "value": "61.5 µM"}
{"smiles": "CCN(CC)c1nc(Cc2cccc3ccccc23)c(C(C)C)c(=O)[nH]1", "strain": "ROD", "read by": "MTT", "value": ">183 µM"}
{"smiles": "c1ccc(C2OCc3nc4ccccc4n32)cc1", "strain": "ROD", "read by": "cytopathic effect", "value": ">17 µM"}
{"smiles": "O=C(O)c1cc(Cc2ccc(O)c(C(=O)O)c2)ccc1O", "read by": "cytopathic effect", "value": ">200 µM"}
{"smiles": "COC(=O)[C@H](CCSC)NC(=O)COc1ccc2ccc(O[C@H]3O[C@H](C4COC(C)(C)O4)[C@@H]4OC(C)(C)O[C@H]34)cc2c1", "strain": "ROD", "read by": "cytopathic effect / MTT", "value": ">45 µg/mL"}
{"smiles": "Cc1ccc(CN2C(=O)CSC2c2c(F)cccc2F)o1", "strain": "ROD", "read by": "cytopathic effect", "value": "35.2 µM"}
{"smiles": "CCCCNc1nc(Cc2cccc3ccccc23)c(CC)c(=O)[nH]1", "strain": "ROD", "read by": "MTT", "value": ">33.3 µM"}
{"smiles": "O=C(c1ccccc1)c1ccc2nc3n(c2c1)C(c1c(Cl)cccc1Cl)SC3", "strain": "ROD", "read by": "cytopathic effect / MTT", "value": ">1.3 µM"}
{"smiles": "O=c1[nH]cnc2c1ncn2[C@H]1CC[C@@H](CO)O1", "strain": "ROD", "read by": "cytopathic effect / MTT", "value": "9.36 µg/mL"}
{"smiles": "Fc1ccc2c(c1)nc1n2C(c2c(F)cccc2F)SC1", "strain": "ROD", "read by": "cytopathic effect / MTT", "value": ">35.9 µM"}
{"smiles": "Nc1ncnc2c1ncn2CCOCP(=O)(O)O", "read by": "cytopathic effect / MTT", "value": "3.7 µM"}
{"smiles": "Cc1cc(C#Cc2cccnc2)cc(C)c1Oc1ccnc(Nc2ccc(C#N)cc2)n1", "strain": "ROD", "read by": "MTT", "value": ">3.476 µM"}
{"smiles": "Fc1ccc2c(c1)nc1n2C(c2c(F)cccc2Cl)SC1", "strain": "ROD", "read by": "cytopathic effect / MTT", "value": ">34.7 µM"}
{"smiles": "CCCCc1c(Cc2cccc3ccccc23)nc(NCc2ccccc2)[nH]c1=O", "strain": "ROD", "read by": "MTT", "value": ">39.75 µM"}
{"smiles": "Cc1cc(C(O)(c2cc(C)c(O)c(C(=O)O)c2)c2cc(C)c(O)c(C(=O)O)c2)cc(C(=O)O)c1O", "read by": "cytopathic effect", "value": ">200 µM"}
{"smiles": "O=C1CSC(c2c(Cl)cccc2Cl)N1c1cccc(C(F)(F)F)c1", "strain": "ROD", "read by": "cytopathic effect", "value": "3.09 µM"}
{"smiles": "Cc1cn([C@H]2C[C@H](N=[N+]=[N-])[C@@H](COC(=O)CCC(=O)OC[C@H]3O[C@@H]4O[C@H]5[C@H](O)[C@@H](O)[C@@H](O[C@H]6[C@H](O)[C@@H](O)[C@@H](O[C@H]7[C@H](O)[C@@H](O)[C@@H](O[C@H]8[C@H](O)[C@@H](O)[C@@H](O[C@H]9[C@H](O)[C@@H](O)[C@@H](O[C@H]3[C@H](O)[C@H]4O)O[C@@H]9CO)O[C@@H]8CO)O[C@@H]7CO)O[C@@H]6CO)O[C@@H]5CO)O2)c(=O)[nH]c1=O", "strain": "ROD", "read by": "cytopathic effect / MTT", "value": "0.036 µg/mL"}
{"smiles": "COc1ccc2nc3n(c2c1)C(c1c(Cl)cccc1Cl)SC3", "strain": "ROD", "read by": "cytopathic effect / MTT", "value": ">292 µM"}
{"smiles": "O=C1CSC(c2ccnc3ccccc23)N1c1ccccn1", "strain": "ROD", "read by": "cytopathic effect", "value": "7.1 µM"}
{"smiles": "Nc1nc2c(nnn2CCOCP(=O)(O)O)c(=O)[nH]1", "read by": "cytopathic effect / MTT", "value": "6.2 µM"}
{"smiles": "O=c1[nH]cnc2c1ncn2C1CC[C@@H](CO)O1", "strain": "ROD", "read by": "MTT", "value": "2.71 µM"}
{"smiles": "Nc1ncnc2c1nnn2CCOCP(=O)(O)O", "read by": "cytopathic effect / MTT", "value": "91 µM"}
{"smiles": "Cc1cc(C#Cc2cccc(N)c2)cc(C)c1Oc1ccnc(NC2CCN(Cc3ccc(C(N)=O)cc3)CC2)n1", "strain": "ROD", "read by": "MTT", "value": ">0.198 µM"}
{"smiles": "CCCNc1nc(Cc2cccc3ccccc23)c(C)c(=O)[nH]1", "strain": "ROD", "read by": "MTT", "value": ">41.97 µM"}
{"smiles": "Fc1ccc(F)c(C2OCc3nc4ccccc4n32)c1", "strain": "ROD", "read by": "cytopathic effect", "value": ">71 µM"}
{"smiles": "Fc1ccc2nc3n(c2c1)C(c1c(F)cccc1Cl)SC3", "strain": "ROD", "read by": "cytopathic effect / MTT", "value": ">28.2 µM"}
{"smiles": "CCc1c(Cc2cccc3ccccc23)nc(N(CC)CC)[nH]c1=O", "strain": "ROD", "read by": "MTT", "value": ">3.79 µM"}
{"smiles": "O=C(c1ccccc1)c1ccc2nc3n(c2c1)C(c1c(F)cccc1Cl)SC3", "strain": "ROD", "read by": "cytopathic effect / MTT", "value": ">1.2 µM"}
{"smiles": "Cc1cc(C#Cc2ccccc2N)cc(C)c1Oc1ccnc(Nc2ccc(C#N)cc2)n1", "strain": "ROD", "read by": "MTT", "value": ">8.883 µM"}
{"smiles": "Fc1cccc(F)c1C1SCc2nc3ccc(C(F)(F)F)cc3n21", "strain": "ROD", "read by": "cytopathic effect / MTT", "value": ">351 µM"}
{"smiles": "Cc1cc(C#Cc2cccc(N)c2)cc(C)c1Oc1ccnc(NC2CCN(Cc3cccc(C(N)=O)c3)CC2)n1", "strain": "ROD", "read by": "MTT", "value": ">0.63 µM"}
{"smiles": "CCOP(=O)(O)COCCn1nnc2c(N)ncnc21", "read by": "cytopathic effect / MTT", "value": ">331 µM"}